Experimental data from patent US20170209564A1 (Janssen / Centocor, published 2017).

B1: monoclonal antibody CR9114 (antibody, V domains shown)
VH: QVQLVQSGAEVKKPGSSVKVSCKSSGGTSNNYAISWVRQAPGQGLDWMGGISPIFGSTAYAQKFQGRVTISADIFSNTAYMELNSLTSEDTAVYFCARHGNYYYYSGMDVWGQGTTVTVSS
VL: SYVLTQPPAVSGTPGQRVTISCSGSDSNIGRRSVNWYQQFPGTAPKLLIYSNDQRPSVVPDRFSGSKSGTSASLAISGLQSEDEAEYYCAAWDDSLKGAVFGGGTQLTVL
EC50 (read off the curve) 163: ~0.1 µg/mL | EC50 (read off the curve) 165: ~0.05 µg/mL | EC50 (read off the curve) 164: ~0.08 µg/mL
